A mixed list of measured activities; the numbers were collected in NIAID ChemDB.

Common to all: growth or infection tests; species: Mycobacterium tuberculosis

An empty or dashed field is not shown. Inhibition is in % at the dose shown (toxicity tests: loss of growth or viability). ECn is the concentration giving n% inhibition of infection, replication or growth. MIC bound comes from a single tested concentration. Rows are shuffled and stem from different studies. A number after MIC or MFC names an inhibition level or a share of isolates.

SMILES	setting	strain or isolate	method	changes	tested at	read-out	cell line	value
CC[C@H]1OC(=O)[C@H](C)[C@@H](O[C@H]2C[C@@](C)(OC)[C@@H](O)[C@H](C)O2)[C@H](C)[C@@H](O[C@@H]2O[C@H](C)C[C@H](N(C)C)[C@H]2O)[C@](C)(OC)C[C@@H](C)C(=O)[C@H](C)[C@@H](O)[C@]1(C)O		H37Rv				Mean MIC		10 µg/mL
COC1=C[C@@H](C)[C@@H]2C[C@H]3OC(O)C[C@H]4C(C)=C(OC)C(=O)[C@H]([C@@]2(C)C1=O)[C@@]34C		H37Rv				EC50		>12.5 µg/mL
Cc1c(C(=O)NC(C)(C)C)[n+](=O)c2ccccc2n1[O-]		H37Rv				MIC		>6.25 µg/mL
CCOC(=O)CSc1nnc(-c2ccco2)n1CC		H37Rv			6.25 µg/mL	inhibition		13%
CC1COc2c(N3CCN(C)CC3)c(F)cc3c(=O)c(C(=O)O)cn1c23		H37Rv				Median MIC		0.75 µg/mL
CCCCOC(=S)SCN1C(=O)c2ccccc2S1(=O)=O		H37Rv				MIC		6.25 µg/mL
Oc1cc(Cl)ccc1Oc1ccc(-c2cc(-c3ccccc3)on2)cc1Cl		H37Rv	MTT			MIC		>100 µg/mL
COc1ccc2c(c1OC)C(C(Cl)(Cl)Cl)N1CCc3cc4c(cc3C1=C2C=O)OCO4		H37Rv	BACTEC			MIC		≥12.5 µg/mL
NNC(=O)c1ccncc1		H37Rv	broth dilution			MIC		0.66 µM
O=C(CSc1nnc(-c2ccccn2)s1)N/N=c1/scc(-c2cccc([N+](=O)[O-])c2)n1-c1ccccc1		Clinical isolate 190				MIC		>80 µg/mL
COC(=O)C12OC[C@]34[C@H]([C@@H](O)[C@@H]1O)[C@@]1(C)C=C(O[C@@H]5O[C@H](CO)[C@@H](O)[C@H](O)[C@H]5O)C(=O)[C@@H](C)[C@@H]1C[C@H]3OC(=O)[C@H](OC(=O)/C=C(\C)C(C)C)[C@@H]24		H37Rv	BACTEC		12.5 µg/mL	inhibition		8%
COc1ccc(-c2nc3ccccc3n2C(=O)/C=C/c2ccccc2)cc1		H37Rv	resazurin / visual reading			MIC100		3.12 µg/mL
Fc1ccc(-n2cc(CSC3c4ccccc4-c4ccccc43)nn2)cc1Cl		Specimen 192	broth dilution			MIC99		246 µM
C[Si](C)(C)c1cc(-c2ccc(Oc3ccc(Cl)cc3Cl)c(O)c2)no1		H37Rv	MTT			MIC		100 µg/mL
CCCCCCCCCCCCCCCCOCC(O)CO		H37Rv	BACTEC			MIC		12.5 µg/mL
CN1CCN(C(=S)SCN2C(=O)c3ccccc3S2(=O)=O)CC1		H37Rv				MIC		6.25 µg/mL
CCn1c(SCC(=O)N/N=C/c2cc(O)ccc2Br)nnc1-c1ccco1		H37Rv				MIC		>6.25 µg/mL
Cc1ccc(-n2cc(CNC3c4ccccc4-c4ccccc43)nn2)cc1		H37Rv	broth dilution			MIC99		142 µM
CCn1c(SCC(=O)N/N=C/c2cccc(OC)c2)nnc1-c1ccco1		H37Rv				MIC		>6.25 µg/mL
O=C(c1ccccc1)c1ccc(Oc2ccc(Cl)cc2Cl)c(O)c1		mc4914	MTT	InhA overexpression		MIC		100 µg/mL
COC1=C[C@@H](C)[C@@H]2C[C@H]3OC(=O)C[C@@H]4[C@@]3(C)[C@H]([C@H](O)C[C@@]4(C)C(=O)C3(C)COC(=O)C3)[C@@]2(C)C1=O		H37Rv				EC50		>12.5 µg/mL
CO[C@H]1/C=C/O[C@@]2(C)Oc3c(C)c(O)c4c(O)c(c(/C=N/N5CCN(C6CCCC6)CC5)c(O)c4c3C2=O)NC(=O)/C(C)=C\C=C\[C@H](C)[C@H](O)[C@@H](C)[C@@H](O)[C@@H](C)[C@H](OC(C)=O)[C@@H]1C		H37Rv				Mean MIC		0.013 µg/mL
COC1=C[C@@H](C)[C@@H]2C[C@H]3OC(=O)C[C@H]4[C@](C)(O)[C@H](OC)[C@@H](OC(C)=O)[C@H]([C@@]2(C)C1=O)[C@@]34C		H37Rv				EC50		>12.5 µg/mL
NC(=O)c1[nH]c(=S)sc1N		H37Rv	BACTEC		12.5 µg/mL	inhibition		4%
Cc1c(C(=O)Nc2ccccc2)[n+](=O)c2ccccc2n1[O-]	inside macrophages	H37Rv				EC50		<10.07 µg/mL
CC1(N2C(=O)OC(c3ccccc3)C2=O)C(=O)N2CCSC21c1ccccc1		H37Rv	BACTEC			MIC bound		>12.5 µg/mL
CN(C)c1ccc(O)c2c1C[C@H]1C[C@H]3[C@H](N(C)C)C(=O)C(C(N)=O)=C(O)[C@@]3(O)C(=O)C1=C2O		H37Ra				Mean MIC		2 µg/mL
Cc1cc2c(cc1C)[n+](=O)c(C(=O)N1CCN(c3ccc([N+](=O)[O-])cc3)CC1)c(C)n2[O-]		H37Rv				MIC		>6.25 µg/mL
C.CO[C@H]1[C@H](O)[C@H](O)C(=O)O[C@@H]1CO		H37Rv	resazurin		6.25 µg/mL	inhibition		-1%
COC1=C[C@@H](C)[C@@H]2C[C@H]3OC(O)C[C@H]4[C@](C)(O)[C@H](OC)[C@@H](O)[C@H]([C@@]2(C)C1=O)[C@@]34C		H37Rv				EC50		>12.5 µg/mL
COc1cc(-n2cc(CS(=O)(=O)C3c4ccccc4-c4ccccc43)nn2)cc(OC)c1OC		H37Rv	broth dilution			MIC99		52.35 µM
COC1=C[C@@H](C)[C@@H]2C[C@H]3OC(=O)C[C@]4(O)[C@@]3(C)[C@H]([C@H](O)[C@@H](OC)[C@@]4(C)O)[C@@]2(C)C1=O		H37Rv			12.5 µg/mL	inhibition		5%
Cc1cc(-c2cc3c(cc2F)c(=O)c(C(=O)O)cn3C2CC2)cc(C)n1		1620-6				MBC		8 µg/mL
COC1=C[C@@H](C)[C@@H]2C[C@H]3OC(=O)C[C@H]4[C@](C)(O)[C@@H]5OCO[C@H]5[C@H]([C@@]2(C)C1=O)[C@@]34C		H37Rv				EC50		>12.5 µg/mL
CC(=O)N=C1N(/C=C2\C(=O)Oc3ccccc3C2=O)C(=O)/C(=C/c2ccc(NC(C)=O)cc2)N1C		H37Rv	BACTEC		12.5 µg/mL	inhibition		0%
Cc1ccccc1NC(=O)c1c(C)n([O-])c2cc(Cl)c(Cl)cc2[n+]1=O		H37Rv			6.25 µg/mL	inhibition		100%
COc1ccc2c(c1)[n+]([O-])c(C(N)=O)c(N)[n+]2[O-]		KM-R				MIC		3.1 µg/mL
Cc1ccc(-n2cc(CSC3c4ccccc4-c4ccccc43)nn2)cc1		H37Rv	broth dilution			MIC99		135 µM
O=C(/C=C/c1ccccc1)n1c(-c2ccccc2O)nc2ccccc21		H37Rv	resazurin / visual reading			MIC100		25 µg/mL
O=C(CSc1nnc(-c2ccccn2)s1)N/N=c1/scc(-c2ccccc2)n1-c1cccc(Cl)c1		H37Rv				MIC		>80 µg/mL
O=C(/C=C/c1ccccc1)n1c(CCl)nc2ccccc21		H37Rv	resazurin / visual reading			MIC100		25 µg/mL
NC(=O)CCCCC1CCSS1		H37Rv	BACTEC			MIC	VERO	6.25 µg/mL
CO[C@H]1/C=C/O[C@@]2(C)Oc3c(C)c(O)c4c(O)c(c(/C=N/N5CCN(C)CC5)c(O)c4c3C2=O)NC(=O)/C(C)=C\C=C\[C@H](C)[C@H](O)[C@@H](C)[C@@H](O)[C@@H](C)[C@H](OC(C)=O)[C@@H]1C		H37Rv				Median MIC		0.075 µg/mL
Nc1cc(C(=O)Nc2ccc(C3=NCCN3)cc2)cc(C(=O)Nc2ccc(C3=NCCN3)cc2)c1		H37Rv	BACTEC			MIC bound		>12.5 µg/mL
Cc1cccc(-n2c(-c3ccccc3)cs/c2=N/NC(=O)CSc2nnc(-c3ccccn3)s2)c1		Clinical isolate 331				MIC		>80 µg/mL
CC(=O)C(NC(=O)C(C)C(O)C(C)NC(=O)C(NC(=O)c1nc(C(CC(N)=O)NCC(N)C(N)=O)nc(N)c1C)C(OC1OC(CO)C(O)C(O)C1(C)OC1OC(CO)C(O)C(O)(C(N)=O)C1O)c1cnc[nH]1)C(=O)NCCC1=NC(c2nc(C(N)=O)cs2)CS1		KM-R				MIC		0.006 µg/mL
O=C(CSc1nnc(-c2ccccn2)s1)N/N=c1/scc(-c2ccccc2)n1-c1cccc(Br)c1		Clinical isolate 331				MIC		>80 µg/mL
CC(=O)O[C@H]1C[C@@]2(C)[C@@H](C[C@@H](O)[C@H]3[C@@]4(C)CC[C@@H](O)[C@@H](C)[C@@H]4CC[C@@]32C)/C1=C(\CCC=C(C)C)C(=O)O		H37Rv				Median MIC		8 µg/mL
Cc1cc(C(=O)NCc2ccc(Oc3ccc(Cl)cc3O)c(Cl)c2)no1		H37Rv	MTT			MIC		>100 µg/mL
CC1=NN(C(=O)c2ccc([N+](=O)[O-])cc2)C(=O)C1N=Nc1ccccc1C(=O)O		H37Rv	BACTEC		12.5 µg/mL	inhibition		3%
Fc1ccc(-n2cc(CSC3c4ccccc4-c4ccccc43)nn2)cc1		H37Rv	broth dilution			MIC99		66.94 µM
O=C(CSc1nnc(-c2ccccn2)s1)N/N=c1/scc(-c2cccc(Br)c2)n1-c1ccccc1		Clinical isolate 180				MIC		40 µg/mL
CCCCc1cn(Cc2ccc(Oc3ccc(Cl)cc3Cl)c(O)c2)nn1		mc4914	MTT	InhA overexpression		MIC		>80 µg/mL
O=C1c2ccccc2C(=O)c2[nH]cnc21		H37Rv	BACTEC		12.5 µg/mL	inhibition		92%
O=C(Nc1ccccc1)c1ccc(Oc2ccc(Cl)cc2Cl)c(O)c1		H37Rv	MTT			MIC		>100 µg/mL
O=C(/C=C/c1ccccc1)n1c(-c2ccc([N+](=O)[O-])cc2)nc2ccccc21		H37Rv	resazurin / visual reading			MIC100		50 µg/mL
Cc1ncc(CO)c(C=O)c1O		H37Rv	resazurin			MIC bound		>6.25 µg/mL
CN[C@@H]1[C@@H](O)[C@@H](O[C@@H]2[C@@H](O)[C@H](O[C@H]3O[C@H](CN)CC[C@H]3N)[C@@H](N)C[C@H]2N)OC[C@]1(C)O		H37Ra				Mean MIC		8 µg/mL
O=C(/C=C/c1ccccc1)n1c(-c2ccc(Cl)c(Cl)c2)nc2ccccc21		H37Rv	resazurin / visual reading			MIC100		25 µg/mL
CCO/C=C1\N=C(COc2ccc(Cl)cc2C)OC1=O		H37Rv	BACTEC			MIC bound		>12.5 µg/mL
Cc1c(C(=O)N2CCN(Cc3ccccc3)CC2)[n+](=O)c2ccccc2n1[O-]		H37Rv			6.25 µg/mL	inhibition		0%
COC(=O)[C@]12OC[C@@]34[C@@H](CC5=C(C)C(=O)C(O)=C[C@]5(C)[C@H]3[C@@H](O)[C@@H]1O)OC(=O)[C@H](OC(=O)/C=C(\C)C(C)C)[C@@H]24		H37Rv				EC50		>12.5 µg/mL
O=[N+]([O-])c1ccc(/C=N/N2CCNC2=S)o1		H37Rv	BACTEC			MIC bound		>12.5 µg/mL
CCN(CC)C(=S)SCN1C(=O)c2ccccc2S1(=O)=O		H37Rv				MIC		1.56 µg/mL
Cc1cc(C(=O)NCc2ccc(Oc3ccc(Cl)cc3Cl)c(O)c2)no1		mc4977	MTT	INH resistant katG deletion		MIC		5 µg/mL
CC1=CC(=Nc2ccc(N(C)C)cc2)C=CC1=O		H37Rv	resazurin			MIC bound		>6.25 µg/mL
Oc1cc(CNC2CCCCC2)ccc1Oc1ccc(Cl)cc1Cl		mc4914	MTT	InhA overexpression		MIC		12.5 µg/mL
COC(=O)[C@]12OC[C@@]34[C@@H](CC5=C(C)C(=O)C(O)=C[C@]5(C)[C@H]3[C@@H](O)[C@@H]1O)OC(=O)[C@H](OC(=O)c1ccccc1)[C@@H]24		H37Rv				EC50		>12.5 µg/mL
CCCOC(=S)SCN1C(=O)c2ccccc2S1(=O)=O		H37Rv			6.25 µg/mL	inhibition		99%
c1ccc2c(c1)nc1nc3c(cn12)CCCC3		H37Rv	resazurin		6.25 µg/mL	inhibition		30%
CCc1ccc(-n2cc(CNC3c4ccccc4-c4ccccc43)nn2)cc1		Specimen 192	broth dilution			MIC99		136 µM
Cc1ccc(NN(NC(=O)OC(C)C)C(=O)OC(C)C)cc1		H37Rv	BACTEC		12.5 µg/mL	inhibition		17%
CCn1c(SCC(=O)N/N=C/c2ccc([N+](=O)[O-])cc2)nnc1-c1ccco1		H37Rv				MIC		>6.25 µg/mL
Nc1c(Cl)cnn2nnnc12		H37Rv	BACTEC		12.5 µg/mL	inhibition		0%
O=C(c1ccc(Oc2ccc(Cl)cc2Cl)c(O)c1)N1CCOCC1		H37Rv	MTT			MIC		>100 µg/mL